Earlier results, collected in article PMC11676875, “In Vitro Screening of an In-House Library of Structurally Distinct Chemotypes Towards the Identification of Novel SARS-CoV-2 Inhibitors” (Pharmaceuticals, 2024).

Tested on: dengue
Details: read-out: anti-dengue EC50; cited from earlier work

## 3-(N-allyl)cytisin thiocarbamide
  EC50: 0.1 µM
